From PMC8842630, “Imidazoline- and Benzamidine-Based Trypanosome Alternative Oxidase Inhibitors: Synthesis and Structure–Activity Relationship Studies” (ACS Medicinal Chemistry Letters, 2022)

Assays:
[1] = system: T. b. brucei strain resistant to pentamidine (B48); format: cell-based; conditions: EC50 B48 / EC50 WT
[2] = system: T. brucei cell line from which all aquaporins were knocked out (AQP1-3 KO); format: cell-based, T. b. brucei; conditions: EC50 AQP1-3 KO / EC50 WT

With CC(=O)O.Cc1cc(O)cc(O)c1C(=O)NCCCCCCOc1ccc(C(=N)N)cc1 [1b] the “RF (resistance factor relative to WT), B48” value [1] was 1.8 and the “RF (resistance factor relative to WT), AQP1-3 KO” value [2] was 1.1.

With CC(=O)O.Cc1cc(O)cc(O)c1C(=O)NCCCCCCCCCCCCOc1ccc(C(=N)N)cc1 [1c] the “RF (resistance factor relative to WT), B48” value [1] was 1.1.

For CC(=O)O.Cc1cc(O)cc(O)c1C(=O)NCCCCCCCCCCCCCCOc1ccc(C(=N)N)cc1 [1d], the “RF (resistance factor relative to WT), B48” value [1] was 1.6.

CC(=O)O.Cc1cc(O)cc(O)c1C(=O)NCCCCCCCCCCCCOc1ccc(C2=NCCN2)cc1 [2c] was tested, and the “RF (resistance factor relative to WT), AQP1-3 KO” value [2] was 1.7.

In the case of CC(=O)O.Cc1cc(O)cc(O)c1C(=O)NCCCCCCCCCCCCOc1ccc(N=C2NCCN2)cc1 [3c], the “RF (resistance factor relative to WT), AQP1-3 KO” value [2] is reported as 1.4.

In the case of Cc1cc(O)cc(O)c1C(=O)NCCCOc1ccc(C#N)cc1 [7a], the “RF (resistance factor relative to WT), B48” value [1] is reported as 1.4.

For Cc1cc(O)cc(O)c1C(=O)NCCCCCCOc1ccc(C#N)cc1 [7b], the “RF (resistance factor relative to WT), B48” value [1] was 0.9 and the “RF (resistance factor relative to WT), AQP1-3 KO” value [2] was 1.0.

Cc1cc(O)cc(O)c1C(=O)NCCCCCCCCCCCCOc1ccc(C#N)cc1 [7c] was tested, and the “RF (resistance factor relative to WT), B48” value [1] was 1.0.

In the case of Cc1cc(O)cc(O)c1C(=O)NCCCCCCCCCCCCCCOc1ccc(C#N)cc1 [7d], the “RF (resistance factor relative to WT), B48” value [1] is reported as 1.1.

For Cc1cc(O)cc(O)c1C(=O)NCCCCCCOc1ccc(C(=N)NO)cc1 [8b], the “RF (resistance factor relative to WT), B48” value [1] was 1.9 and the “RF (resistance factor relative to WT), AQP1-3 KO” value [2] was 1.1.

For Cc1cc(O)cc(O)c1C(=O)NCCCCCCCCCCCCOc1ccc(C(=N)NO)cc1 [8c], the “RF (resistance factor relative to WT), B48” value [1] was 1.1.

Cc1cc(O)cc(O)c1C(=O)NCCCCCCCCCCCCCCOc1ccc(C(=N)NO)cc1 [8d] was tested, and the “RF (resistance factor relative to WT), B48” value [1] was 0.9.

In the case of Cc1cc(O)cc(O)c1C(=O)NCCCCCCCCCCCCOc1ccc([N+](=O)[O-])cc1 [11c], the “RF (resistance factor relative to WT), AQP1-3 KO” value [2] is reported as 1.1.

For Cc1cc(O)c(C(=O)CCCCCCCCCCCCCCCOc2ccc(C#N)cc2)c(O)c1 [compound 20], the “RF (resistance factor relative to WT), AQP1-3 KO” value [2] was 1.4.

In the case of N=C(N)c1ccc(OCCCCCOc2ccc(C(=N)N)cc2)cc1 [pentamidine, reference compound], the “RF (resistance factor relative to WT), B48” value [1] is reported as 49.5 and the “RF (resistance factor relative to WT), AQP1-3 KO” value [2] is reported as 10.8.
